According to PubChem BioAssay AID1085 (Emory University Molecular Libraries Screening Center, 2008):
The list shows a part of the results, in another mix than the full data. The source made the active and inactive calls. Cut-off read from the data, not from the text of the source: active = inhibition above about 50%; inactive = the rest.

Amino acid sequences for entries named in this document (tags omitted).
UniProt Q1HVG2, whole entry: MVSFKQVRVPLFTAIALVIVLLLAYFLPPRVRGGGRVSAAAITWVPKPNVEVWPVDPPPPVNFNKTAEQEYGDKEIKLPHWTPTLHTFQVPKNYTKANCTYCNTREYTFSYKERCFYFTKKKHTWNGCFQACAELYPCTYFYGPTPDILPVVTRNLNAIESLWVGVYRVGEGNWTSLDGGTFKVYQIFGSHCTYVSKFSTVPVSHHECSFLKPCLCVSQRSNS

The molecules below were run against Glycoprotein 42 (Epstein-Barr virus (strain AG876)) (UniProt Q1HVG2) (assay: EBV glycoprotein 42 binding blockers – biochemical, uHTS, fluorescence polarization, primary screen (AID 1085)). Details: Fluorescence polarization binding assay, mP read-out; stronger effect = higher value; tested at 21.74 µM.

Compound | inhibition
CC(C)(C)OC(=O)N1CCC(Nc2ccccc2)CC1 | inactive: -10.2%
CCOc1ncccc1C(=O)NCC1(N2CCOCC2)CCCCC1 | inactive: -21.5%
CCCOc1ccc(C)cc1CN(CCCl)CCCl | inactive: -5.63%
CCC(CO)(C(=O)OC1CN2CCC1CC2)c1ccccc1 (centres undefined) | inactive: -6.74%
COc1cc(OC)cc(C(=O)NCC2(N3CCOCC3)CCCCC2)c1 | inactive: 8.46%
Fc1ccccc1NC1CCN(Cc2ccccc2)CC1 | inactive: -18%
CN(C)c1ccc(C(=O)NCC2(N3CCCCC3)CCCCC2)cc1 | inactive: -6.59%
CCN1CCC(Nc2cccc(F)c2)CC1 | inactive: -6.36%
N#Cc1ccc(C(=O)NCC2(N3CCCCC3)CCCCC2)cc1 | inactive: -26.6%
c1ccc(CN2CCC(Nc3ccccc3)CC2)cc1 | inactive: 1.09%
COc1ccc(C(=O)NCC2(N3CCOCC3)CCCCC2)cc1OC | inactive: -11.1%
O=C(OC1CN2CCC1CC2)C1c2ccccc2C=Cc2ccccc21 (centres undefined) | inactive: -11%
N/C(=N\O)c1c(N)no[n+]1[O-] | inactive: -9.03%
CN(C)c1cccc(C(=O)NCC2(N3CCCCC3)CCCCC2)c1 | inactive: -1.51%
COc1ccc(CN(CCCl)CCCl)cc1Cl | inactive: -17.1%
CC(C)c1ccc(NC2CCN(C(=O)OC(C)(C)C)CC2)cc1 | inactive: 6.89%
O=C(NCC1(N2CCCCC2)CCCCC1)c1cccc([N+](=O)[O-])c1 | inactive: -10.9%
N#CC1(Nc2ccccc2)CCN(CCc2ccccc2)CC1 | inactive: -5.01%
CN1CCN(CCOC(=O)C(O)(c2ccccc2)c2ccccc2)CC1 | inactive: -15.9%
COc1ccc(NC2CCN(C(=O)OC(C)(C)C)CC2)cc1 | inactive: -10.9%
O=C(NCC1(N2CCOCC2)CCCCC1)c1cc(=O)[nH]c2ccccc12 | inactive: -0.94%
COc1ccc(NC2CCN(CCc3ccccc3)CC2)c(OC)c1 | inactive: -10.9%
CCOc1ccc(C)cc1CN(CCCl)CCCl | inactive: -9.36%
Cc1ccc(OCC(C)C)c(CN(CCCl)CCCl)c1 | inactive: -6.38%
COc1ccc(C(=O)NCC2(N3CCCCC3)CCCCC2)c(OC)c1OC | inactive: -11%
CCOC(=O)N1CCC(Nc2ccc(OC)cc2)CC1 | inactive: -11.3%
O=C(OC1CN2CCC1CC2)C1c2ccccc2Oc2ccccc21 (centres undefined) | inactive: -7.58%
N#CC1(Nc2ccccc2)CCN(Cc2ccccc2)CC1 | inactive: -5.73%
O=C(NCC1(N2CCOCC2)CCCCC1)c1cc2ccccc2o1 | inactive: -25.8%
